Anti-infective test results gathered from many reports (values: NIAID ChemDB through PubChem).

Common to all: whole-cell or culture tests; agent: Mycobacterium avium

ECn: concentration that inhibits the pathogen or its effect by n%. Neighbouring rows are from separate reports. A number after MIC or MFC names an inhibition level or a share of isolates. An empty or dashed field is not shown.

smiles,measure,setting,strain or isolate,method,value
C(=C\c1ccccc1)/CNc1ccc(Cn2ccnc2)cc1,MIC,-,103317,-,1 µg/mL
O=C(Nc1cccc(Cl)c1)c1cc(Br)ccc1O,MIC,-,CNCTC MY330/88,-,31 µM
CCOc1ccc(NC(=S)Nc2ccc(OCC(C)C)cc2)cc1,MIC,-,299,-,31.3 µg/mL
O=C(c1ccncc1)N(NCc1cccc([N+](=O)[O-])c1)C(=O)c1cnccn1,MIC,-,ATCC49601,-,>16 µg/mL
CC(C)N=C(N)/N=C(\N)NOCCCOc1cc(Cl)c(Cl)cc1Cl,MIC,-,LPR,-,38.4 µg/mL
N/C(=N\NC(CC(=O)c1cccc(Cl)c1)c1cccnc1)c1ccccn1,MIC,-,485,-,32 µg/mL
C=C(CO)[C@@H]1CC[C@@]2(C)[C@H](O)CC=C(C)[C@@H]2[C@H]1O,MIC,-,-,-,>128 µg/mL
O=c1oc2cc(Cl)ccc2c(=O)n1-c1ccccc1,MIC,-,CNCTC MY330/88,-,8 µM
Cc1cccc(C(=O)CC(N/N=C(\N)c2ccccn2)c2ccccn2)c1,MIC,-,485,-,16 µg/mL
CCCCCCCCc1ccc(NC(=O)c2ccc(Cl)cc2O)cc1,MIC,-,MY330/88,-,8 µM
CCCCOc1cccc(NC(=O)OCC[NH+]2CCCC2)c1,MIC,-,MY330/88,-,125 µM
COc1ccc(NC(=O)c2cc(Cl)ccc2O)cc1,MIC,-,CNCTC MY330/88,-,31 µM
c1ccc(/C(Cn2ccnc2)=N/OCc2cccc3ccccc23)cc1,MIC,-,103317,-,23.4 µM
CCCCCCCc1ccc(NC(=O)c2cc(Cl)ccc2O)cc1,MIC,-,MY330/88,-,4 µM
CCS/C(N)=N/N=C/c1nc2ccccc2n1C,MIC,-,CNCTC D5/93,-,500 µM
O=C(NNC(=O)c1ccncc1)Nc1ccc(F)c(Cl)c1,MIC100,21 d,MY330/88,broth dilution,>125 µM
Cc1cc(NC(=O)c2cc(I)ccc2O)no1,MIC,-,MY330/88,-,250 µM
Cc1c(CN2CCSCC2)cc(-c2ccccc2F)n1-c1ccccc1F,MIC,-,-,-,>16 µg/mL
CCCCCCCOc1ccccc1NC(=O)OC(COCC)CN1CCCCC1,MIC,-,MY330/88,-,125 µM
CCOc1ccccc1NC(=O)OCC[NH+]1CCCC1,MIC,-,MY330/88,-,>1000 µM
COc1ccc(C(=O)Nc2cnccn2)c(O)c1,MIC,-,MY330/88,-,250 µM
C/C1=C\[C@H]2OC(=O)[C@@H](C)[C@@H]2CCC2(C)O[C@@H]2CC1,MIC,-,-,-,128 µg/mL
O=C(Oc1cc(Cl)ccc1C(=O)Nc1ccc(Cl)cc1)c1cnccn1,MIC,21 d,330/88,-,2 µM
CCCCCCCCOc1cccc(NC(=O)OCCN2CCCCCC2)c1,MIC,-,MY330/88,-,8 µM
COc1ccc2c(=O)n(-c3ccc([N+](=O)[O-])cc3)c(=O)oc2c1,MIC,-,CNCTC MY330/88,-,32 µM
O=C(Nc1cncs1)c1cc(F)ccc1O,MIC,-,MY330/88,-,1000 µM
COc1ccc(CNN(C(=O)c2ccncc2)C(=O)c2cnccn2)cc1,MIC,-,ATCC49601,-,>16 µg/mL
CCCCCCCS/C(N)=N/N=C/c1ccc2ccccc2n1,MIC,-,CNCTC MY80/72,-,16 µM
O=C(Nc1ccc(Cl)cc1Cl)c1cc(Br)ccc1O,MIC,-,CNCTC MY330/88,-,8 µM
O=c1oc2ccccc2c(=O)n1-c1ccc(Cl)cc1,MIC,-,CNCTC MY330/88,-,62 µM
O=C(Nc1ccc(Cl)c(Cl)c1)c1cc([N+](=O)[O-])ccc1O,MIC,-,CNCTC MY330/88,-,62 µM
Fc1ccc(/C(Cn2ccnc2)=N\OCc2cccc3ccccc23)cc1,MIC,-,103317,-,22.2 µM
CCCCCc1ccc(NC(=O)NNC(=O)c2ccncc2)cc1,MIC100,14 d,MY330/88,broth dilution,62.5 µM
c1ccc(-c2ccc(CNc3ccc(-n4ccnc4)cc3)cc2)cc1,MIC,-,103317,-,23.6 µM
C=CC[N+]1(CCOC(=O)Nc2ccccc2OCCCCCC)CCCCC1,MIC,-,MY330/88,-,125 µM
O=c1oc2cc(Cl)ccc2c(=O)n1-c1ccc(C(F)(F)F)cc1,MIC,-,CNCTC MY330/88,-,8 µM
O=c1[nH]c(=O)n([C@H]2C[C@H](O)[C@@H](CO)O2)cc1CO,EC50,-,ATCC 25291,-,>50 µg/mL
CN(C)c1ccc(NC(=O)c2cc([N+](=O)[O-])ccc2O)cc1,MIC,-,CNCTC MY330/88,-,1000 µM
Cc1cn([C@@H]2O[C@H](CO)[C@@H](O)[C@H]2F)c(=O)[nH]c1=O,EC50,-,ATCC 25291,-,>50 µg/mL
CCCCCOc1ccccc1NC(=O)OCC[N+]1(CCCC)CCCCC1,MIC,-,MY330/88,-,250 µM
CN1CCN(Cc2ccc(NC/C=C/c3ccccc3)cc2)CC1,MIC,-,103317,-,8 µg/mL
CCCCCCOc1ccccc1NC(=O)OCC[N+]1(C)CCCCC1,MIC,-,MY330/88,-,125 µM
Cc1c(CN2CCSCC2)cc(-c2ccccc2)n1-c1ccc(F)cc1,MIC,-,-,-,2 µg/mL
CCCCCCCCc1ccc(NC(=O)c2cc(Cl)ccc2O)cc1,MIC,-,MY330/88,-,32 µM
O=C(Nc1ccc(Cl)c(Cl)c1)c1cc(F)ccc1O,MIC,-,CNCTC MY330/88,-,8 µM
CCCCCCCCCCCC[N+]1(CCOC(=O)Nc2ccccc2OCCCCCC)CCCCC1,MIC,-,MY330/88,-,8 µM
O=C1C(=S)N(c2ccccc2)c2ccccc21,MIC,-,CNCTC D5/93,-,63 µM
COc1ccc(Nc2nnc(-c3ccncc3)o2)cc1,MIC100,21 d,MY330/88,broth dilution,>125 µM
O=C(Oc1cc(Cl)ccc1C(=O)Nc1ccc(C(F)(F)F)cc1)c1cnccn1,MIC,21 d,330/88,-,8 µM
CCCCOc1ccccc1NC(=O)OCCN1CCCCC1,MIC,-,MY330/88,-,62.5 µM
CCCCOc1ccc(NC(=S)Nc2ccc(OCCN(CC)CC)cc2)cc1,MIC,-,299,-,16.6 µg/mL
CCCCCCCCc1ccc(NC(=O)NNC(=O)c2ccncc2)cc1,MIC100,21 d,MY330/88,broth dilution,500 µM
c1ccc(/C(Cn2ccnc2)=N/OCc2ccc(-c3ccccc3)cc2)cc1,MIC,-,103317,-,21.7 µM
CCOC(=O)C(=O)N=Nc1c(S)n(CC)c2ccccc12,MIC,-,CNCTC MY80/72,-,>1000 µM
CCCOc1ccc(NC(=O)OCCN2CCCC2)cc1,MIC,-,MY330/88,-,250 µM
CS/C(N)=N/N=C/c1ccc2ccccc2n1,MIC,-,CNCTC D5/93,-,>1000 µM
CCCCCCOc1ccccc1NC(=O)OC(C)CN1CCCCC1,MIC,-,MY330/88,-,62.5 µM
O=C(c1ccncc1)N(/N=C/c1cccc([N+](=O)[O-])c1)C(=O)c1cnccn1,MIC,-,ATCC49601,-,>16 µg/mL
O=c1[nH]c(=O)n([C@H]2C[C@H](O)[C@@H](CO)O2)cc1/C=C/I,EC50,-,ATCC 25291,-,>50 µg/mL
Cc1c(CN2CCSCC2)cc(-c2ccc(Cl)cc2)n1-c1ccc(F)cc1,MIC,-,-,-,>16 µg/mL
CCCc1ccc(NC(=O)c2cc(Cl)ccc2O)cc1,MIC,-,MY330/88,-,8 µM
CCCCCCOc1cccc(NC(=O)OCCN2CCOCC2)c1,MIC,-,MY330/88,-,32 µM
CCCCNC(=O)c1cc([N+](=O)[O-])cc([N+](=O)[O-])c1,MIC,-,-,visual reading,64 µg/mL
CCCCCOc1ccccc1NC(=O)OCC[N+]1(CCC)CCCCC1,MIC,-,MY330/88,-,500 µM
CCCCCCc1ccc(NC(=O)c2cc(Cl)ccc2O)cc1,MIC,-,MY330/88,-,8 µM
CCn1c(S)c(N=NC(N)=O)c2ccccc21,MIC,-,CNCTC MY66/72,-,63 µM
O=C(Oc1cc(Cl)ccc1C(=O)Nc1cccc(Br)c1)c1cnccn1,MIC,21 d,330/88,-,16 µM
O=C(NNC(=O)c1ccncc1)Nc1ccc(Br)c(C(F)(F)F)c1,MIC100,21 d,MY330/88,broth dilution,>125 µM
O=C(c1ccncc1)N(/N=C/c1ccccc1Cl)C(=O)c1cnccn1,MIC,-,ATCC49601,-,>16 µg/mL
Fc1ccc(C(Cn2ccnc2)NCc2cccc3ccccc23)cc1,MIC,-,103317,-,92.6 µM
CCCCCCOc1ccccc1NC(=O)OCC[N+]1(CCC)CCCCC1,MIC,-,MY330/88,-,125 µM
Cc1cc(NC(=O)c2ccccc2O)no1,MIC,-,MY330/88,-,62.5 µM
Clc1ccc(C(Cn2ccnc2)OC/C=C/c2ccccc2)cc1,MIC,-,103317,-,23.7 µM
CN1CCN(Cc2cccc(NC/C=C/c3ccccc3)c2)CC1,MIC,-,103317,-,32 µg/mL
C=C1C(=O)O[C@@H]2/C=C(\C)CC/C=C(\C)CC[C@@H]12,MIC,-,-,-,128 µg/mL
Clc1ccc(/C(Cn2ccnc2)=N\OCc2ccccc2)c(Cl)c1,MIC,-,103317,-,22.2 µM
CCCOc1cccc(NC(=O)OCC[NH+]2CCCC2)c1,MIC,-,MY330/88,-,500 µM
COc1ccc(C(=O)Nc2cncs2)c(O)c1,MIC,-,MY330/88,-,500 µM
CCCCOc1ccc(NC(=S)Nc2ccc(N(C)C)cc2)cc1,MIC,-,299,-,2 µg/mL
Cc1c(CN2CCSCC2)cc(-c2ccccc2Cl)n1-c1ccccc1Cl,MIC,-,-,-,8 µg/mL
CCCC(C)S/C(N)=N/N=C/c1ccc2ccccc2n1,MIC,-,CNCTC MY80/72,-,63 µM
Cc1c(CN2CCN(C)CC2)cc(-c2ccccc2F)n1-c1cccc2ccccc12,MIC,-,-,-,4 µg/mL
O=C(Oc1ccc(Cl)cc1C(=O)Nc1cccc(F)c1)c1cnccn1,MIC,21 d,330/88,-,16 µM
NC(=S)N=Nc1c(S)n(-c2ccccc2)c2ccccc12,MIC,-,CNCTC MY80/72,-,63 µM
O=C(c1ccncc1)N(/N=C/c1cccc(Oc2ccccc2)c1)C(=O)c1cnccn1,MIC,-,ATCC49601,-,>16 µg/mL
CCCc1ccc(NC(=O)c2ccc(Cl)cc2O)cc1,MIC,-,MY330/88,-,32 µM
C(/C=C/c1ccccc1)=Nc1cccc(CN2CCOCC2)c1,MIC,-,103317,-,32 µg/mL
O=C(Nc1ccc(Cl)cc1)c1ccccc1O,MIC,-,CNCTC MY330/88,-,31 µM
CCCCCCc1ccc(NC(=O)c2cc(Br)cc(Br)c2O)cc1,MIC,-,MY330/88,-,62.5 µM
N/C(=N\NC(CC(=O)c1ccc(-c2ccccc2)cc1)c1cccnc1)c1ccccn1,MIC,-,485,-,16 µg/mL
C[C@@H]1C(=O)O[C@H]2[C@H]1CCC1(C)O[C@@H]1CC[C@@]1(C)O[C@@H]21,MIC,-,-,-,128 µg/mL
Clc1ccc(C(Cn2ccnc2)OCc2cccc3ccccc23)cc1,MIC,-,103317,-,11 µM
N/C(=N\NC(CC(=O)c1ccc(Cl)cc1)c1ccccn1)c1ccccn1,MIC,-,485,-,8 µg/mL

Repeating the first 8 entries:

smiles,measure,setting,strain or isolate,method,value
C(=C\c1ccccc1)/CNc1ccc(Cn2ccnc2)cc1,MIC,-,103317,-,1 µg/mL
O=C(Nc1cccc(Cl)c1)c1cc(Br)ccc1O,MIC,-,CNCTC MY330/88,-,31 µM
CCOc1ccc(NC(=S)Nc2ccc(OCC(C)C)cc2)cc1,MIC,-,299,-,31.3 µg/mL
O=C(c1ccncc1)N(NCc1cccc([N+](=O)[O-])c1)C(=O)c1cnccn1,MIC,-,ATCC49601,-,>16 µg/mL
CC(C)N=C(N)/N=C(\N)NOCCCOc1cc(Cl)c(Cl)cc1Cl,MIC,-,LPR,-,38.4 µg/mL
N/C(=N\NC(CC(=O)c1cccc(Cl)c1)c1cccnc1)c1ccccn1,MIC,-,485,-,32 µg/mL
C=C(CO)[C@@H]1CC[C@@]2(C)[C@H](O)CC=C(C)[C@@H]2[C@H]1O,MIC,-,-,-,>128 µg/mL
O=c1oc2cc(Cl)ccc2c(=O)n1-c1ccccc1,MIC,-,CNCTC MY330/88,-,8 µM